T1: human Kv1.1 channel (human), Q09470
T1 chain: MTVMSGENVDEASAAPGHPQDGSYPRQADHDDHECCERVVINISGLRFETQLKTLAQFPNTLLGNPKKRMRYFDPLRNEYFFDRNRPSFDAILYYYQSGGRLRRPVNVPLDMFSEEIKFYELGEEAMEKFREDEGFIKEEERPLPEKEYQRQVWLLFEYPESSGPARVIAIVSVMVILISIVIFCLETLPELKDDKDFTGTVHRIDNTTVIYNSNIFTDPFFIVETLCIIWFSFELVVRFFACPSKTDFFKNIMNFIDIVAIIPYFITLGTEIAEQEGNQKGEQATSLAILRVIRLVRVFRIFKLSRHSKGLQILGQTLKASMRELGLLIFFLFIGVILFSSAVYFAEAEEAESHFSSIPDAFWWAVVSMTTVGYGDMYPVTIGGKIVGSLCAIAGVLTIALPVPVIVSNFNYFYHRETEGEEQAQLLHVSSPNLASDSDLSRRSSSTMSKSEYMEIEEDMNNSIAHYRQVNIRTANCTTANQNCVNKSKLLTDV


Columns and labels:
[1] = molecular target: human Kv1.3 channel (human), P22001; assay: cell-based or functional assay
[2] = molecular target: T1, human Kv1.1 channel (human), Q09470; assay: cell-based or functional assay

Binder	Kv1.3 IC50 (IonWorks electrophysiology) [1] [pM]	WB/IFNg IC50 (human whole blood) [1] [nM]	WB/IL-2 IC50 (human whole blood) [1] [nM]	Kv1.1 IC50 (IonWorks electrophysiology) [2] [pM]
GVIINVKCKIARQCLEPCKKAGMRFGKCMNGKCHCTPK (modifications not checked) [OSK1 S11A]	40.8	0.11	0.09	113
GVIINVKCKISRQCLEPCKRAGMRFGKCMNGKCHCTPK (modifications not checked) [OSK1 K20R]	9.85	0.083	0.067	< 1.52
GVIINVKCKISRQCLEPCRKAGMRFGKCMNGKCHCTPK (modifications not checked) [OSK1 K19R]	12.6	0.062	0.044	2.41
GVIINVKCKIRRQCLEPCKKAGMRFGKCMNGKCHCTPK (modifications not checked) [OSK1 S11R]	16.7	4.07	2.12	210
GVIINRKCKISRQCLEPCKKAGMRFGKCMNGKCHCTPK (modifications not checked) [OSK1 V6R]	8.65	0.115	0.084	2.4
GVIINVKCKISRQCLEPCKAAGMRFGKCMNGKCHCTPK (modifications not checked) [OSK1 K20A]	1040	0.379	0.379	185
GVIINVKCKISRQCLEPCKKAGMRFGKCMNGKCACTPK (modifications not checked) [OSK1 H34A]	19.4	0.0573	0.0725	368
GVIINVKCKISRQCAEPCKKAGMRFGKCMNGKCHCTPK (modifications not checked) [OSK1 L15A]	43.1	0.107		15
GVIINVKCKISRQCLEPCAKAGMRFGKCMNGKCHCTPK (modifications not checked) [OSK1 K19A]	210			16.9
GVIINVKCKISRQCLEPCKKAGMRFGKCMNAKCHCTPK (modifications not checked) [OSK1 G31A]	70.2			61.8
GVIINVKCKISAQCLEPCKKAGMRFGKCMNGKCHCTPK (modifications not checked) [OSK1 R12A]	390	0.155	0.123	55.9
GVIINVKCKISRQCREPCKKAGMRFGKCMNGKCHCTPK (modifications not checked) [OSK1 L15R]	13.7	0.116	0.093	2.16
GVIINVKCKISRACLEPCKKAGMRFGKCMNGKCHCTPK (modifications not checked) [OSK1 Q13A]	249	0.133	0.148	21.6
GVRINVKCKISRQCLEPCKKAGMRFGKCMNGKCHCTPK (modifications not checked) [OSK1 I3R]	19.9	0.18	0.148	2.47
GVIINVKCKISRQCLERCKKAGMRFGKCMNGKCHCTPK (modifications not checked) [OSK1 P17R]	10.4	0.355	0.202	< 1.52
GVIINVKCKISRQCLEPCKKAGMRFAKCMNGKCHCTPK (modifications not checked) [OSK1 G26A]	711	10.7	12.1	733
GVIINVKCKISRQCLEPCKKAGMRAGKCMNGKCHCTPK (modifications not checked) [OSK1 F25A]	1490	3.08	3.08	47.3

Binder	Kv1.3 IC50 (IonWorks electrophysiology) [1] [pM]	WB/IFNg IC50 (human whole blood) [1] [nM]	WB/IL-2 IC50 (human whole blood) [1] [nM]	Kv1.1 IC50 (IonWorks electrophysiology) [2] [pM]
GVIINVKCKISRQCLEPCKKAGMRFGKCMAGKCHCTPK (modifications not checked) [OSK1 N30A]	693	0.637	0.971	> 3000
GVIINVKCKISRQCLEPCKKAGMRFGKCANGKCHCTPK (modifications not checked) [OSK1 M29A]	59.5	0.292	0.447	> 3330
GVIINVKCKISRQCLEPCKKAGMRFGACMNGKCHCTPK (modifications not checked) [OSK1 K27A]	232	1.58		> 3000
GVIINVKCRISRQCLEPCKKAGMRFGKCMNGKCHCTPK (modifications not checked) [OSK1 K9R]	12	0.077	0.107	2.01
GVIINVKCKISRQCLEPCKKAGARFGKCMNGKCHCTPK (modifications not checked) [OSK1 M23A]	71.4	0.275	0.275	38.6
GVIINVKCKISRQCLEACKKAGMRFGKCMNGKCHCTPK (modifications not checked) [OSK1 P17A]	33.9			9.08
GVIINVKCKISRRCLEPCKKAGMRFGKCMNGKCHCTPK (modifications not checked) [OSK1 Q13R]	15.3	0.172	0.16	< 1.52
GVIINVKCKISRQCLEPCKKAAMRFGKCMNGKCHCTPK (modifications not checked) [OSK1 G22A]	> 3000	7.09	7.09	> 3000
GVIINVKCKISRQCLEPCKKAGMAFGKCMNGKCHCTPK (modifications not checked) [OSK1 R24A]	> 3000			1890
GVIINVKCKISRQCLRPCKKAGMRFGKCMNGKCHCTPK (modifications not checked) [OSK1 E16R]	10.4	0.454	0.556	< 1.52
GVIINVRCKISRQCLEPCKKAGMRFGKCMNGKCHCTPK (modifications not checked) [OSK1 K7R]	13.2	0.071	0.078	< 1.52
GVIINVKCKRSRQCLEPCKKAGMRFGKCMNGKCHCTPK (modifications not checked) [OSK1 I10R]	11.7	0.474	0.307	1.73
GVIIRVKCKISRQCLEPCKKAGMRFGKCMNGKCHCTPK (modifications not checked) [OSK1 N5R]	13.6	0.12	0.095	2.15
GRIINVKCKISRQCLEPCKKAGMRFGKCMNGKCHCTPK (modifications not checked) [OSK1 V2R]	133	0.986	0.775	25.8
GVIINVKCKISRQCLAPCKKAGMRFGKCMNGKCHCTPK (modifications not checked) [OSK1 E16A]	21.6			6.87
GVIRNVKCKISRQCLEPCKKAGMRFGKCMNGKCHCTPK (modifications not checked) [OSK1 I4R]	10.4	0.175	0.168	1.92
RVIINVKCKISRQCLEPCKKAGMRFGKCMNGKCHCTPK (modifications not checked) [OSK1 G1R]	68.8	0.991	0.554	9.91

Source: patent US20090281028A1
